Source: ChEMBL document CHEMBL4831479, “Discovery of Novel Thiophene-arylamide Derivatives as DprE1 Inhibitors with Potent Antimycobacterial Activities” (J Med Chem, 2021)

Assays:
[1] = Ratio of MIC for Mycobacterium bovis BCG transfected with pMV261:Mt-dprE1 to MIC for wild type Mycobacterium bovis BCG
[2] = system: Mycobacterium tuberculosis; assay: Non-covalent inhibition of DprE1 in PBTZ169-resistant Mycobacterium tuberculosis measured after 7 days by microplate Alamar blue assay; conditions: time 7.0 day

SMILES	Ratio [1]	MIC [2] [µg/mL]
CCOC(=O)NC(=O)c1ccsc1NC(=O)c1ccc(C(=O)N2CCCCC2)c(F)c1	> 8	–
CCOC(=O)NC(=O)c1ccsc1NC(=O)c1ccc(C(=O)N2CCCCC2)s1	32	–
O=C(Nc1sccc1C(=O)Nc1nccc(C(F)(F)F)n1)c1ccc(C(=O)N2CCCCC2)cc1	8	–
CCOC(=O)NC(=O)c1ccsc1NC(=O)c1nc2ccccc2s1	–	1.23 (≈ 3.28 µM)

≈ marks a conversion by molar mass, not a printed value.
